Patent US20040214757
At least one result comes from cells or an extract, where the contact may be indirect. For some assays here: Protein sequences can lack the tags named with them. For some assays here: Construct, isoform or probe ends are uncertain for at least one entry.

Tests used:
[1] = target: T1, EBNA-1 C-terminal domain beta-galactosidase fusion (Epstein-Barr virus) (UniProt P03211); assay: binding assay; conditions: plaque filter screening; protein in a lysate after overexpression; protein details: beta-galactosidase fusion, lambda EB lysogen
T1 sequence (looked up): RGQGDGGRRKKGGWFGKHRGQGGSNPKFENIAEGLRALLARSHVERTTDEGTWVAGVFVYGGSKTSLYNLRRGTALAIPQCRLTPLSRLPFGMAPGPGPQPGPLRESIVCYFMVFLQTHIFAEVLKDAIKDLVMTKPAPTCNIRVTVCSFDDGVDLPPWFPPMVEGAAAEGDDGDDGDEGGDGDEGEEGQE

NF-kappaB (Homo sapiens) = assay: binding assay; conditions: CITED direct binding per footnote; protein in an extract; protein details: PHA/PMA-stimulated Jurkat nuclear extract; cited from earlier work

Question: Does “AGATTAGGATAGCATATGCTACCCAGATAT (double strand) [EBNA-1 consensus 30-mer]” bind [1]?
Answer: binds

Question: Does “AGGGACTTTCC (double strand) [HIV-1 (-105) kappaB site]” bind (NF-kappaB (Homo sapiens))?
Answer: binds
